Results reported in US10765662B2, “Mono- or di-substituted indole derivatives as dengue viral replication inhibitors” (Janssen Pharmaceuticals, Inc., priority 2015, dated 2020).

How the values were obtained:
Assay type in all cases: cell-based, Dengue virus
[1] = tested on: DENV-2 16681 strain labeled with enhanced green fluorescent protein; assay: DENV-2 antiviral assay (eGFP fluorescence read-out in Vero cells); conditions: SI=CC50/EC50, DENV-2 antiviral assay
In short: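 Vero cells (2500/well) pre-plated with compound (9-step 5-fold series), infected next day with eGFP-labeled DENV-2 16681 at MOI 0.5 in MEM with 2% FCS; 3 days at 37° C. eGFP fluorescence read at 488 nm; inhibition versus virus and cell controls, EC50 by linear interpolation.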

[2] = tested on: DENV-1 strain TC974#666; assay: Tetravalent RT-qPCR assay Protocol A, serotype 1; conditions: RT-qPCR serotype 1 TC974#666
Description: (§1) The antiviral activity of the compounds of the invention was tested against DENV-1 strain TC974#666 (NCPV), DENV-2 strain 16681, DENV-3 strain H87 (NCPV) and DENV-4 strains H241 (NCPV) and EDEN (SG/06K2270DK1/2005; GenBank accession number QG398256) in a RT-qPCR assay. Therefore, Vero cells were infected with either DENV-1, or -2, or -3, or -4 in the presence or absence of test compounds. At day 3 post-infection, the cells were lysed and cell lysates were used to prepare cDNA of both a viral target (the 3′UTR of DENV; Table 2) and a cellular reference gene (β-actin, Table 2). Subsequently, a duplex real time PCR was performed on a Lightcycler480 instrument. The generated Cp value is inversely proportional to the amount of RNA expression of these targets. Inhibition of DENV replication by a test compound results in a shift of Cp's for the 3′UTR gene. On the other hand, if a test compound is toxic to the cells, a similar effect on β-actin expression will be observed. The comparative ΔΔCp method is used to calculate EC50, which is based on the relative gene expression of the target gene (3′UTR) normalized with the cellular housekeeping gene (β-actin). In addition, CC50 values are determined based on the Cp values acquired for the housekeeping gene β-actin.
(§2) The culture medium consisted of minimal essential medium supplemented with 2% of heat-inactivated fetal calf serum, 0.04% gentamycin (50 mg/mL) and 2 mM of L-glutamine. Vero cells, obtained from ECACC, were suspended in culture medium and 75 μL/well was added in 96-well plates (10000 cells/well), which already contain the antiviral compounds. […] In addition, each plate contains wells which are assigned as virus controls (containing cells and virus in the absence of compound) and cell controls (containing cells in the absence of virus and compound). Once the cells were added in the plates, the plates were incubated in a fully humidified incubator (37° C., 5% CO2) until the next day. Dengue viruses serotype-1, 2, 3 and 4 were diluted in order to obtain a Cp of ˜22-24 in the assay. Therefore, 25 μL of virus suspension, was added to all the wells containing test compound and to the wells assigned as virus control. In parallel, 25 μL of culture medium was added to the cell controls. Next, the plates were incubated for 3 days in a fully humidified incubator (37° C., 5% CO2). After 3 days, the supernatant was removed from the wells and the cells were washed twice with ice-cold PBS (˜100 μL). The cell pellets within the 96-well plates were stored at −80° C. for at least 1 day. Next, RNA was extracted using the Cells-to-CT™ lysis kit, according to the manufacturer's guideline (Life Technologies). The cell lysates can be stored at −80° C. or immediately used in the reverse transcription step.
(§3) In preparation of the reverse transcription step, mix A (table 3A) was prepared and 7.57 μL/well was dispensed in a 96-well plate. After addition of 5 μL of the cell lysates, a five minute denaturation step at 75° C. was performed (table 3B). Afterwards, 7.43 μL of mix B was added (table 3C) and the reverse transcription step was initiated (table 3D) to generate cDNA.
(§4) Finally, a RT-qPCR mix was prepared, mix C (table 4A), and 22.02 μL/well was dispensed in 96-well LightCycler qPCR plates to which 3 μL of cDNA was added and the qPCR was performed according to the conditions in table 4B on a LightCycler 480.
(§5) Using the LightCycler software and an in-house LIMS system, dose response curves for each compound were calculated and the half maximal effective concentration (EC50) and the half maximal cytotoxic concentration (CC50) were determined (Tables 5-8).

[3] = tested on: DENV-2 strain 16681; assay: Tetravalent RT-qPCR assay Protocol A, serotype 2; conditions: RT-qPCR serotype 2 16681
Description: as §1, §2, §3, §4, §5

[4] = tested on: DENV-3 strain H87; assay: Tetravalent RT-qPCR assay Protocol A, serotype 3; conditions: RT-qPCR serotype 3 H87
Description: as §1, §2, §3, §4, §5

[5] = tested on: DENV-4 strain H241; assay: Tetravalent RT-qPCR assay Protocol A, serotype 4 H241; conditions: RT-qPCR serotype 4 H241
Description: as §1, §2, §3, §4, §5

[6] = tested on: DENV-4 strain EDEN (SG/06K2270DK1/2005); assay: Tetravalent RT-qPCR assay Protocol A, serotype 4 EDEN; conditions: RT-qPCR serotype 4 EDEN
Description: as §1, §2, §3, §4, §5

Row | SMILES | SI [1] | SI [2] | SI [3] | SI [4] | SI [5] | SI [6]
1 | COc1cc(NC(C(=O)c2c[nH]c3cc(OC)c(C)cc23)c2ccc(Cl)cc2OCCO)cc(S(C)(=O)=O)c1 (single isomer, unassigned) [Compound 6A, 2-(4-chloro-2-(2-hydroxyethoxy)phenyl)-2-((3-methoxy-5-(methylsulfonyl)phenyl)amino)-1-(6-methoxy-5-methyl-1H-indol-3-yl)ethanone] | >38500 | 2830 | 65400 | 198 | 58 | >2825
2 | COc1cc(NC(C(=O)c2c[nH]c3cc(F)c(F)cc23)c2ccc(Cl)cc2OCCO)cc(S(C)(=O)=O)c1 (single isomer, unassigned) [Compound 7A, 2-(4-chloro-2-(2-hydroxyethoxy)phenyl)-1-(5,6-difluoro-1H-indol-3-yl)-2-((3-methoxy-5-(methylsulfonyl)phenyl)amino)ethanone] | 12573 | 5380 | >14800 | 299 | 37 | 4953
